Results: patent US8748373B2, “Hepatitis B virus compositions and methods of use” (priority 2007, dated 2014)
Values joined by “and” are separate entries in the source; they are usually repeats but may differ in a detail not shown here. Identical values can stand only once.

Key:
293T cells = assay: Transient expression and secretion of IA and preS proteins, immunoblot quantitation of media and cells; format: cell-based, human; conditions: for Secretion (%): protein detected in medium relative to total in medium and cells: 293T cells, 2 days after transient transfection, immunoblot; for Secretion (%) / Concentration in media: 2 days
[1] = Dimer formation of secreted IA, electrophoresis under non-reducing conditions; conditions: secreted protein
T-REx 293 cell line = assay: Induced expression and secretion of IA from stable T-REx 293 cell line; format: cell-based, human; conditions: 2 days after tetracycline induction
[2] = Transient transfection of 293T cells with 10 μg plasmid

Molecule: MAGWSSKPRKGMATNLSVPNPLGFFPDHQLD . . . HPQA [G2A, G13A]
- Secretion (%): protein detected in medium relative to total in medium and cells (293T cells): 71%

Molecule: MGGWSSKPRK (expressed as IA; 1-10 of HBV) [preS1 amino acids 1-10 expressed as IA]
- Secretion (%): protein detected in medium relative to total in medium and cells (293T cells): 4%

Molecule: MGGWSSKPRKGMGTNLSVPNPLGFFPDHQL [1-30]
- Secretion (%): protein detected in medium relative to total in medium and cells (293T cells): 75%

Molecule: MGGWSSKPRKGMGTQLSVPNPLGFFPDHQLD . . . HPQA [N15Q]
- Secretion (%): protein detected in medium relative to total in medium and cells (293T cells): 64%

Molecule: S1-IA: immunoadhesin: HBV preS1 domain (1-119, adw2) fused N terminally to Fc region of a rabbit IgG heavy chain
- Occurrence as dimers [1]: 14%

Molecule: S1S2-IA: immunoadhesin: HBV preS1 plus preS2 domains fused to Fc region of a rabbit IgG heavy chain
- Secretion (%) (293T cells; Transient transfection of 293T cells with 0.16 μg plasmid (64-fold less)): > 80% and 83%
- Secretion (%) (293T cells; Transient transfection of 293T cells with 0.16 μg plasmid (64-fold less), listed as S1S1-IA): > 80%
- Concentration in media (293T cells; Transient transfection of 293T cells with 0.16 μg plasmid): 26 nM
- Concentration in media (293T cells; [2]): 540 nM
- Secretion (%) (293T cells; [2]): 95%
- Occurrence as dimers [1]: 14%
- Concentration in media (T-REx 293 cell line): 320 nM
- Secretion (%) (T-REx 293 cell line): > 80% and 82%
- Secretion (%) (T-REx 293 cell line; listed as S1S1-IA): > 80%

B1: IA without HBV sequences: Fc region of a rabbit IgG heavy chain without HBV preS sequences (protein)
chain: APSTCSKPTCPPPELLGGPSVFIFPPKPKDTLMISRTPEVTCVVVDVSQDDPEVQFTWYINNEQVRTARPPLREQQFNSTIRVVSTLPITHQDWLRGKEFKCKVHNKALPAPIEKTISKARGQPLEPKVYTMGPPREELSSRSVSLTCMINGFYPSDISVEWEKNGKAEDNYKTTPAVLDSDGSYFLYNKLSVPTSEWQRGDVFTCSVMHEALHNHYTQKSISRSPGK
- Secretion (%): protein detected in medium relative to total in medium and cells (293T cells): not secreted
